Values of other authors in patent publication US7537765B2, “Inhibition of HIV-1 replication by disruption of the processing of the viral capsid-spacer peptide 1 protein” (priority 2003, dated 2009).
Which two values form the index is not stated here.

Tested on: HIV-1 replication in H9 lymphocyte cells
Details: cited from earlier work; for therapeutic index (T.I.): H9 lymphocyte cells; for T.I.: acutely infected H9 lymphocytes

Row | SMILES | therapeutic index (T.I.) | T.I.
1 | C=C(C)[C@@H]1CC[C@]2(C(=O)O)CC[C@]3(C)[C@H](CC[C@@H]4[C@@]5(C)CC[C@H](O)C(C)(C)[C@@H]5CC[C@]43C)[C@@H]12 [Betulinic acid] | 9.3 | –
2 | C=C(C)[C@@H]1CC[C@]2(C(=O)O)CC[C@]3(C)[C@H](CC[C@@H]4[C@@]5(C)CC[C@H](OC(=O)CC(C)(C)C(=O)O)C(C)(C)[C@@H]5CC[C@]43C)[C@@H]12 [DSB, 3-O-(3′,3′-dimethylsuccinyl)betulinic acid] | – | more than 970,000
3 | CC(C)[C@@H]1CC[C@]2(C(=O)O)CC[C@]3(C)[C@H](CC[C@@H]4[C@@]5(C)CC[C@H](OC(=O)CC(C)(C)C(=O)O)C(C)(C)[C@@H]5CC[C@]43C)[C@@H]12 [dihydrobetulinic acid analog, 3-O-(3′,3′-dimethylsuccinyl)dihydrobetulinic acid] | – | more than 400,000
4 | CC(C)[C@@H]1CC[C@]2(C(=O)O)CC[C@]3(C)C(CCC4[C@@]5(C)CC[C@H](O)C(C)(C)C5CC[C@]43C)C12 (some centres unmarked) [dihydrobetulinic acid] | 14 | –
5 | CC(=O)[C@@H]1CC[C@]2(C(=O)O)CC[C@]3(C)[C@H](CC[C@@H]4[C@@]5(C)CC[C@H](O)C(C)(C)[C@@H]5CC[C@]43C)[C@@H]12 [platanic acid] | 14 | –
